Source: patent publication EP1169036B1, “ANTI-VIRAL USES OF LEFLUNOMIDE PRODUCTS” (priority 1998, dated 1999)

Tested on: Intracellular pyrimidine nucleotide (pyNTP) levels
Experiment: Intracellular pyrimidine nucleotide quantitation by HPLC in CMV-infected HUVEC
Type: cell-based, human
Settings: CMV VHL/E-infected HUVEC, 4 days; A771726 and/or 200 µM uridine

## O=c1ccn([C@@H]2O[C@H](CO)[C@@H](O)[C@H]2O)c(=O)[nH]1 [uridine alone, uridine]
  Intracellular pyNTP levels: increased pyNTP levels
